Anti-infective test results gathered from many reports (values: NIAID ChemDB through PubChem).

Common to all: tests in culture; organism: Mycobacterium tuberculosis

ECn is the concentration giving n% inhibition of infection, replication or growth. Inhibition is in % at the dose shown (toxicity tests: loss of growth or viability). MIC bound: limit read from a one-dose screen. MIC50, MIC90 and the like: level of inhibition, or share of isolates inhibited. Blank or dashed fields: not listed here. Lines come from different laboratories, so protocols vary.

structure | strain or isolate | method | measure | tested at | value
Cc1ccc(NC(=O)CCc2nnc(N)o2)cc1 | H37Rv | BACTEC | MIC bound |  | >12.5 µg/mL
CC(C)c1ccc2c(c1)CC[C@H]1[C@](C)(CNCCNC3CCCCC3C)CCC[C@]21C |  |  | MIC |  | 25 µM
COc1ccnc(N)n1.Cl | H37Rv |  | MIC |  | >100 µg/mL
CC(CNCCNC(C)c1cccc2ccccc12)c1ccccc1 |  |  | MIC |  | 25 µM
O=S(=O)(O)c1cccc2cccnc12 | H37Rv |  | MIC |  | >100 µg/mL
CC1CCC(NCCNC[C@]2(C)CCC[C@]3(C)c4ccc(C(C)C)cc4CC[C@@H]23)CC1 |  |  | MIC |  | 25 µM
CCCCC(Nc1cc(NC(=O)OCC)nc(N)c1[N+](=O)[O-])C(C)=O | H37Rv |  | EC50 |  | <12.5 µg/mL
O=c1cc(-c2ccc(O)c(-c3c(O)cc4oc(-c5ccc(O)cc5)cc(=O)c4c3O)c2)oc2cc(O)cc(O)c12 | H37Rv |  | EC50 |  | >12.5 µg/mL
COc1ccc(C(CC(C)=O)c2c(O)c3ccccc3oc2=O)cc1OC | H37Rv | BACTEC | MIC bound |  | >12.5 µg/mL
COc1ccccc1CCNCCNC[C@]1(C)CCC[C@]2(C)c3ccc(C(C)C)cc3CC[C@@H]12 |  |  | MIC |  | 25 µM
CC(=O)NCCc1ccc(C(=O)O)cc1 | H37Rv |  | MIC |  | >100 µg/mL
CC[C@H]1OC(=O)[C@H](C)[C@@H](O[C@H]2C[C@@](C)(OC)[C@@H](O)[C@H](C)O2)[C@H](C)[C@@H](O[C@@H]2O[C@H](C)C[C@H](N(C)C)[C@H]2O)[C@](C)(O)C[C@@H](C)C(=O)[C@H](C)[C@@H](O)[C@]1(C)O | DRUG-SUS |  | MIC50 |  | >8 µg/mL
CC(NCCNCCc1ccccc1Cl)C12CC3CC(CC(C3)C1)C2 |  |  | MIC |  | 50 µM
C[C@@H]1CN(c2c(F)c(N)c3c(=O)c(C(=O)O)cn(C4CC4)c3c2F)C[C@H](C)N1 | ATCC 35823 |  | MBC |  | 0.06 µg/mL
c1ccc(-c2nc[nH]c2-c2ccccc2)cc1 | H37Rv |  | MIC |  | 50 µg/mL
CSC(=S)N/N=C(/C)Cc1ccccn1 | CS-R |  | MIC |  | 0.8 µg/mL
c1ccc2c(-c3cccc4c3oc3ccccc34)nccc2c1 | H37Rv |  | MIC |  | >100 µg/mL
CCOC(=O)Nc1cc(NCc2ccccc2)c([N+](=O)[O-])c(N)n1 | H37Rv |  | EC50 |  | <12.5 µg/mL
N#Cc1ccc(N2CCCCC2)cc1[N+](=O)[O-] | H37Rv |  | MIC |  | >100 µg/mL
COc1ccc(C2CC(=O)c3cc(F)ccc3O2)cc1 |  |  | EC50 |  | >12.5 µg/mL
S=C(S)Nc1ccc(Cl)cc1 | INH-r |  | MIC |  | 6.3 µg/mL
CCCCCCCCCCCNCCNCc1ccc(C(F)(F)F)cc1 |  |  | MIC |  | 25 µM
N#Cc1c(Nc2cccc(Cl)c2)sc(C(=O)c2cc3cc(Cl)ccc3o2)c1N | H37Rv | BACTEC | MIC bound |  | >12.5 µg/mL
CC(C)N=c1cc2n(-c3ccc(Cl)cc3)c3ccccc3nc-2cc1Nc1ccc(Cl)cc1 | MDR19 | broth dilution / resazurin | MIC |  | 0.5 µg/mL
O=C(O)c1cccc(C(F)(F)F)c1 | H37Rv |  | MIC |  | >100 µg/mL
C[C@H]1C[C@H](N)CN1c1cc2c(cc1F)c(=O)c(C(=O)O)cn2-c1ccc(F)cc1F | ATCC 35823 |  | MBC |  | 8 µg/mL
CCCCCCCCCCCNCCNC(C)CC(C)C |  |  | MIC |  | 25 µM
Cc1cc(C)c(C(=O)C(=O)c2ccccc2)c(C)c1 | H37Rv |  | MIC |  | >100 µg/mL
CCN(CC)c1ccc(N=C2C=C(C(=O)Nc3ccc(C(=O)O)cc3)C(=O)c3ccccc32)c(C)c1 | H37Rv | BACTEC | inhibition | 12.5 µg/mL | 8%
Oc1c(Cl)cc(Cl)cc1Cl | H37Rv |  | MIC |  | >100 µg/mL
C=C1C(=O)O[C@@H]2C[C@@]3(C)CC(=O)C=C(C)[C@@H]3C[C@H]12 | H37Rv | BACTEC | inhibition | 12.5 µg/mL | 76%
CCCCCCCCC(CCc1ccccc1)(C(=O)O)C(=O)O | H37Rv |  | MIC |  | 25 µg/mL
FC(F)(F)c1ccc(CNCCNCCCCc2ccccc2)cc1 |  |  | MIC |  | 25 µM
Cc1cc(=O)[nH]c(=O)[nH]1 | H37Rv |  | MIC |  | >100 µg/mL
CC(C)c1ccc2c(c1)CC[C@H]1[C@](C)(CNCCNCCCc3ccccc3)CCC[C@]21C |  |  | MIC |  | 25 µM
CO[C@H]1/C=C/O[C@@]2(C)Oc3c(C)c(O)c4c(=O)c(c5oc6cc(N7CCN(C(C)C)CC7)cc(=O)c6nc5c4c3=C2O)NC(=O)/C(C)=C\C=C\[C@H](C)[C@H](O)[C@@H](C)[C@@H](O)[C@@H](C)[C@H](OC(C)=O)[C@@H]1C | 2831 (rifampin-sensitive) |  | MBC |  | 0.05 µg/mL
NC1=CC(=O)C(=O)c2ccccc21 | H37Rv |  | MIC |  | 100 µg/mL
O=C1CC(c2ccccc2Br)Oc2ccccc21 |  |  | EC50 |  | >12.5 µg/mL
CCOC(=O)Nc1cc2[nH]c(-c3ccc(Cl)cc3)nc2c(N(CCc2ccccc2)Cc2ccccc2)n1 | H37Rv |  | EC50 |  | <12.5 µg/mL
O=C1c2c(O)cc(O)cc2OC(c2ccc(O)cc2)C1c1c(O[C@@H]2O[C@H](CO)[C@@H](O)[C@H](O)[C@H]2O)cc(O)c2c(=O)cc(-c3ccc(O)cc3)oc12 | H37Rv |  | inhibition | 12.5 µg/mL | 0%
C=CCN(CCNCCc1ccccc1Cl)C1CCCC1 |  |  | MIC |  | 12.5 µM
Cc1ccc(Nc2cc(S(=O)(=O)[O-])c3c4c(cc(=O)n3C)-c3ccccc3C(=O)c24)c(S(=O)(=O)[O-])c1.[Na+].[Na+] | H37Rv |  | MIC |  | >100 µg/mL
CO[C@H]1/C=C/O[C@@]2(C)Oc3c(C)c(O)c4c(=O)c(c5oc6cc(N7CCN(CC(C)C)CC7)cc(=O)c6nc5c4c3=C2O)NC(=O)/C(C)=C\C=C\[C@H](C)[C@H](O)[C@@H](C)[C@@H](O)[C@@H](C)[C@H](OC(C)=O)[C@@H]1C | 3147 (rifampin-sensitive) |  | MIC |  | 0.003 µg/mL
O=C1CC(c2ccccc2)Oc2cc(Cl)ccc21 | H37Rv |  | inhibition | 12.5 µg/mL | 0%
CCCCC(CC)CN1CN(CC(CC)CCCC)CC(C)(NCCN[C@H]2C[C@H]3C[C@@H]([C@@H]2C)C3(C)C)C1 |  |  | MIC |  | 50 µM
CCC(C)(C)NCCNCc1ccc(C(F)(F)F)cc1 |  |  | MIC |  | 25 µM
Nc1ccc(Nc2ccc([As]=O)cc2)nc1 | H37Rv |  | MIC |  | 50 µg/mL
O=C(CCSCCC(=O)N/N=C\C(O)C(O)C(O)C(O)CO)N/N=C\C(O)C(O)C(O)C(O)CO | H37Rv | BACTEC | MIC |  | ≥12.5 µg/mL
O=[N+]([O-])c1ccc(O)cc1 | H37Rv |  | MIC |  | 100 µg/mL
O=C(CCCC(=O)NNC(=O)Nc1ccccc1Cl)NNC(=O)Nc1ccccc1Cl | H37Rv | BACTEC | MIC |  | ≥12.5 µg/mL
CC(=O)Nc1ccc(S(C)(=O)=O)cc1 | H37Rv |  | MIC |  | >100 µg/mL
OC(CCl)c1ccc2ccc3c(c2c1)Nc1ccccc1S3 | H37Rv | BACTEC | MIC bound |  | ≤12.5 µg/mL
CC(Br)C(=O)Nc1ccc(S(=O)(=O)NCCO)cc1 | H37Rv |  | MIC |  | >100 µg/mL
Cc1ncc(C(N)=S)c(N)n1 | H37Rv | resazurin | MIC bound |  | >6.25 µg/mL
CCOC(=O)Nc1cc(=O)c([N+](=O)[O-])c(N)[nH]1 | H37Rv |  | inhibition | 12.5 µg/mL | 0%
O=c1c2cccc3c4ccccc4c4sc5ccccc5n1-c4c23 | H37Rv | BACTEC | inhibition | 12.5 µg/mL | -1%
Nc1ccc(C(=O)/C=C/c2cccnc2N)cc1 | H37Rv |  | inhibition | 12.5 µg/mL | 0%
O=c1n(C2CCCCC2)c(=C(Cl)Cl)c(=C(Cl)Cl)n1C1CCCCC1 | H37Rv | BACTEC | inhibition | 12.5 µg/mL | 5%
COc1ccccc1C(=O)CC(=O)Nc1c(Cl)cccc1Cl | H37Rv |  | MIC |  | >100 µg/mL
CC(C)=CCc1c2c(c3occ(-c4ccc(O)c(O)c4)c(=O)c3c1O)CCC(C)(C)O2 | H37Rv | BACTEC | inhibition | 12.5 µg/mL | 31%
CCCCCCCCN | H37Rv |  | MIC |  | 400 µg/mL
C[N+](C)(C)CC(=O)N/N=C(\Cc1nc2c3c(ccc2[nH]c1=O)C(=O)c1ccccc1C3=O)C(=O)Nc1ccc(Cl)c(Cl)c1.[Cl-] | H37Rv | BACTEC | inhibition | 12.5 µg/mL | 26%
NC1CCN(c2nc3c(cc2F)c(=O)c(C(=O)O)cn3-c2ccc(F)cc2F)C1 | ATCC 35828 |  | MBC |  | >8 µg/mL
CCOC(=O)Cn1nc2oc(=O)c(CCN3CCN(c4ccccc4OC)CC3)c(C)c2c1C | H37Rv | resazurin | MIC bound |  | >6.25 µg/mL
COc1ccccc1CCNCCNC/C=C(\C)CCC=C(C)C |  |  | MIC |  | 50 µM
COc1cc2ccc1OCc1cccc(n1)COc1ccc(cc1OC)C=NCCNCCN=C2 | H37Rv | BACTEC | inhibition | 12.5 µg/mL | 99%
CCOC(=O)Nc1cc(NC(CC)C(O)c2ccccc2)c([N+](=O)[O-])c(N)n1 | H37Rv |  | inhibition | 12.5 µg/mL | 0%
O=C(Nc1ccc(N=Nc2ccc(S(=O)(=O)[O-])cc2)cc1)c1ccc(N=Nc2c(S(=O)(=O)[O-])cc(O)c3c(NC(=O)c4ccccc4)cc(S(=O)(=O)[O-])cc23)cc1.[Na+].[Na+].[Na+] | H37Rv | BACTEC | MIC bound |  | >12.5 µg/mL
CCOc1ccccc1CNCCNC(C)c1cccc2ccccc12 |  |  | MIC |  | 50 µM
C1CN(P2(N3CC3)=NP(N3CC3)(N3CC3)=NP(N3CC3)(N3CC3)=N2)CCO1 | H37Rv | BACTEC | MIC bound |  | >128 µg/mL
CCOC(=O)Nc1cc(NC(C)[C@H](C)c2ccccc2)c(N)c(N)n1 | H37Rv |  | EC50 |  | <12.5 µg/mL
Cc1c(CC[n+]2cccc(C(N)=O)c2)[nH]c(=O)[nH]c1=O.[Cl-] | H37Rv | BACTEC | MIC bound |  | >12.5 µg/mL
c1ccc(CCCNCCNC(c2ccccc2)c2ccccc2)cc1 |  |  | MIC |  | 50 µM